Drawing on article PMC5749897, this text covers percent of parent for 18 substances.

What all share (assay): flow cytometry
Holding throughout (conditions): read off a plot

In test [1] the target is AP33.
The target of test [2] is AR1A.
Test [3] concerns the target AR2A.
For test [4], the target named is HCV1.
The target in test [5] is A4.
The target in test [6] is AR3A.

In the case of “wild-type HCV E1E2 (genotype 1a, strain H77) expression construct with C-terminal V5 epitope tag G436A”, the percent of parent in test [1] was 93 % of WT; in test [2], 110 % of WT; in test [3], 80 % of WT; in test [4] it was 85 % of WT.

For “wild-type HCV E1E2 (genotype 1a, strain H77) expression construct with C-terminal V5 epitope tag L427A”, the percent of parent in test [1] was 63 % of WT; in test [2] it was 110 % of WT; in test [3], 98 % of WT; in test [4], 78 % of WT.

For “wild-type HCV E1E2 (genotype 1a, strain H77) expression construct with C-terminal V5 epitope tag P544A”, the percent of parent in test [5] was 85 % of WT.

For “wild-type HCV E1E2 (genotype 1a, strain H77) expression construct with C-terminal V5 epitope tag N428A”, the percent of parent was 62 % of WT in test [1], 130 % of WT in test [2], 90 % of WT in test [3] and 71 % of WT in test [4].

For “wild-type HCV E1E2 (genotype 1a, strain H77) expression construct with C-terminal V5 epitope tag W549A”, the percent of parent in test [5] was 96 % of WT; in test [4], 88 % of WT.

Regarding “wild-type HCV E1E2 (genotype 1a, strain H77) expression construct with C-terminal V5 epitope tag P545A”, the percent of parent in test [5] was 88 % of WT.

As for “wild-type HCV E1E2 (genotype 1a, strain H77) expression construct with C-terminal V5 epitope tag C503A”, the percent of parent in test [1], in test [3] and in test [4] was 110 % of WT throughout.

Regarding “wild-type HCV E1E2 (genotype 1a, strain H77) expression construct with C-terminal V5 epitope tag D520A”, the percent of parent is 100 % of WT in test [1], 170 % of WT in test [2], 130 % of WT in test [3] and 107 % of WT in test [4].

“wild-type HCV E1E2 (genotype 1a, strain H77) expression construct with C-terminal V5 epitope tag F442A”: the percent of parent in test [1] was 96 % of WT; in test [2] it was 110 % of WT; in test [3] it was 120 % of WT; in test [4], 120 % of WT.

In the case of “wild-type HCV E1E2 (genotype 1a, strain H77) expression construct with C-terminal V5 epitope tag Y485A”, the percent of parent in test [3] is 96 % of WT; in test [4], 105 % of WT.

For “wild-type HCV E1E2 (genotype 1a, strain H77) expression construct with C-terminal V5 epitope tag T519A”, the percent of parent was 120 % of WT in test [5] and 98 % of WT in test [4].

On to “wild-type HCV E1E2 (genotype 1a, strain H77) expression construct with C-terminal V5 epitope tag Y632A”, for which the percent of parent in test [5] is 85 % of WT; in test [4] it was 110 % of WT.

Take “wild-type HCV E1E2 (genotype 1a, strain H77) expression construct with C-terminal V5 epitope tag N548A”: the percent of parent was 110 % of WT in test [5] and 105 % of WT in test [4].

“wild-type HCV E1E2 (genotype 1a, strain H77) expression construct with C-terminal V5 epitope tag W437A”: the percent of parent in test [2] and in test [3] was 130 % of WT in each case.

Take “wild-type HCV E1E2 (genotype 1a, strain H77) expression construct with C-terminal V5 epitope tag L438A”: the percent of parent in test [2] and in test [3] was 120 % of WT in each case.

In the case of “wild-type HCV E1E2 (genotype 1a, strain H77) expression construct with C-terminal V5 epitope tag G495A”, in test [5], the percent of parent was 120 % of WT.

On to “wild-type HCV E1E2 (genotype 1a, strain H77) expression construct with C-terminal V5 epitope tag T425A”, for which the percent of parent in test [1] is 78 % of WT; in test [2], 105 % of WT; in test [3] it was 78 % of WT; in test [6], 7 % of WT; in test [4], 88 % of WT.

For the substance “wild-type HCV E1E2 (genotype 1a, strain H77) expression construct with C-terminal V5 epitope tag L441A”, the percent of parent is 110 % of WT in test [1], 100 % of WT in test [2], 100 % of WT in test [3] and 120 % of WT in test [4].
